{
  "source": "paper PMC10132805",
  "about": "(2023)",
  "binders": {"B1": {"name": "E3 ubiquitin-protein ligase NEDD4 WW domain (domain or fragment)", "chain": "GPLPPGWEERTHTDGRIFYINHNIKRTQWEDPRL"}},
  "key": {"VP40 1-20 (SEBOV) [1]": {"target": "VP40 1-20 (SEBOV)", "experiment": "FP; NEDD4 WW2"}, "VP40 1-20 (SEBOV) [2]": {"target": "VP40 1-20 (SEBOV)", "experiment": "FP; NEDD4 WW4"}},
  "data": [
    {"binder": "B1", "values": [
      {"measurement": "Kd", "setting": "VP40 1-20 (SEBOV) [1]", "value": 22, "unit": "µM"},
      {"measurement": "Kd", "setting": "VP40 1-20 (SEBOV) [2]", "value": 68, "unit": "µM"}
    ]}
  ]
}
